Results of unrelated studies side by side (data: NIAID ChemDB).

All rows: whole-cell or culture tests; species: HIV-1

An empty or dashed field is not shown. Lines come from different laboratories, so protocols vary. ECn is the concentration giving n% inhibition of infection, replication or growth.

SMILES | changes | strain or isolate | cells | endpoint | method | conditions | result
Cc1occc1C(=S)Nc1ccc(Cl)c(C(=O)OCC2CC2)c1 | RT-L74V | NL4-3 | CEM + CEM-SS | EC50 | cytopathic effect / XTT |  | 0.05 µM
COc1ccc(CSc2nc(C(=O)c3cccc(F)c3)c(C)c(=O)[nH]2)cc1 |  | IIIB | MT-4 | EC50 | MTT |  | >325 µM
Nc1nc2c(ncn2[C@@H]2C[C@H](CO)CO2)c(=O)[nH]1 |  |  |  | EC50 |  |  | >100 µM
O=C(CO)N1C[C@@H](O)[C@@H](Cc2ccccc2)N(Cc2ccc(O)cc2)C(=O)N1Cc1ccc(O)cc1 |  | IIIB | MT-4 | EC50 | cytopathic effect |  | 3 µM
CN(C)C=Nc1ccn([C@H]2C[C@H](CO)[C@@H](CO)O2)c(=O)n1 |  | IIIB | MT-4 | EC50 | XTT |  | 11.4 µM
Cc1cn([C@H]2C[C@H](F)[C@@H](CN)O2)c(=O)[nH]c1=O |  |  | MT-4 | EC50 |  |  | >500 µM
COCCOCCOCCOCCOCCOCCOCCOCCOCCOCCOCCOCCOCCOCCOCCOCCOCCOCCOCCOCCOCCOCCOCCOCCOCCOCCOCCOCCOCCOCCOCCOCCOCCOCCOCCOCCOCCOCCOCCOCCOCCOCCOCCOCCOC(=O)CCC(=O)O[C@H](CN1C[C@H]2CCCC[C@H]2C[C@H]1C(=O)NC(C)(C)C)[C@H](Cc1ccccc1)NC(=O)[C@H](CC(N)=O)NC(=O)c1ccc2ccccc2n1 |  | LAI | CEM + CEM-SS | EC50 | cytopathic effect / MTT |  | 0.04 µM
O=C(CCCO)N1C[C@@H](O)[C@@H](Cc2ccccc2)N(Cc2ccc(O)cc2)C(=O)N1Cc1ccc(O)cc1 |  | IIIB | MT-4 | EC50 | cytopathic effect |  | 0.86 µM
Nc1nc2c(ncn2[C@H]2CO[C@@H](CO)O2)c(=O)[nH]1 | RT-A98S F116Y Q151M T215Y |  | MT-2 | EC50 | cytopathic effect / XTT |  | 18 µM
CC=CCOc1cc(NC(=S)c2ccoc2C)ccc1OC | RT-D67N K70R L100I T215Y K219Q | 4xAZT/L100I(RT-D67N K70R T215Y K219Q L100I) | CEM + CEM-SS | EC50 | cytopathic effect / XTT |  | 0.7 µM
Nc1ncnc2c1ncn2CC1(OCP(=O)(O)O)CC1 |  |  |  | EC50 |  |  | >30 µM
Cc1cc(C(C)(O)c2ccc(C(C)(C)C)cc2)nc(Nc2ccc(C#N)cc2)n1 |  | IRLL98 | MT-4 | EC50 | MTT |  | 7.206 µM
Cc1cn([C@@H]2O[C@H](CO)[C@H](O)[C@H]2F)c(=O)[nH]c1=O |  |  | MT-4 | EC50 |  |  | >500 µM
CC(C)C(=O)Cc1c(OCC(O)C(C)(C)O)ccc2ccc(=O)oc12 |  | LAV | PBMC | EC50 | RT activity |  | >100 µM
Nc1nc(NC2CC2)c2ncn([C@H]3C=C[C@@H](CO)C3)c2n1 | RT-M41L D67N K70R T215Y K219Q | XM-AZT-resistant | MT-4 | EC50 | p24 |  | <4.2 µM
CC(C)[C@H](NC(=O)[C@H](Cc1ccccc1)C[C@H](O)[C@H](Cc1ccccc1)NC(=O)[C@H](C)NC(=O)OCc1ccccc1)C(N)=O |  | IIIB | MOLT-4 | EC50 | RT activity |  | 0.76 µM
Cc1cn([C@H]2C=C[C@@H](CO)O2)c(=O)[nH]c1=O | RT-A62V V75I F77C F116Y Q151M | XM-Q151M | MT-4 | EC90 | p24 |  | 22 µM
Cn1cc(C(=O)N2CCC(c3cc(CCOc4ccccc4Cl)[nH]n3)C2)cn1 |  | BaL | TZM-bl | EC90 | luciferase |  | 18.65 µM
COc1ccc(CSc2nc(C(=O)c3ccc(F)cc3)c(C(C)C)c(=O)[nH]2)cc1 |  | IIIB | MT-4 | EC50 | MTT |  | 0.29 µM
CC(C)NC(=O)[C@H]1C[C@@H](NC(=O)N[C@]23CC[C@@H](C4(C)CC4)[C@@H]2[C@H]2CC[C@@H]4[C@@]5(C)CC=C(c6ccc(C(=O)O)cc6)C(C)(C)[C@@H]5CC[C@@]4(C)[C@]2(C)CC3)C1(C)C |  | 92HT599 | MT-2 | EC50 | p24 / ELISA |  | ≤0.01 µM
CCc1c(Sc2ccccc2)n(COCc2ccccc2)c(=O)[nH]c1=O |  | A012B | MT-4 | EC50 | p24 |  | 0.0019 µM
CC(=O)N[C@H]1CSSC[C@@H](C(=O)N[C@@H](CCC(N)=O)C(=O)O)NC(=O)[C@H](Cc2cnc[nH]2)NC(=O)[C@H](Cc2ccc(O)cc2)NC1=O |  | NL4-3 | MT-4 | EC50 | RT activity | 6 d | <2.5 µM
COC(=O)[C@@H](NC(=O)[C@@H](NC(=O)CC[C@H](O)[C@H](Cc1ccccc1)NC(=O)[C@H](C)NC(=O)[C@H](C)NC(=O)OCc1ccccc1)C(C)C)C(C)C |  | IIIB | MOLT-4 | EC50 | RT activity |  | 2.3 µM
COc1c2ccoc2c(OCC=C(C)C)c2oc(=O)ccc12 |  | LAV | PBMC | EC50 | RT activity |  | 14.2 µM
CC(C)(CN1CCCCC1)NC(=O)N[C@]12CC[C@@H](C3(C)CC3)[C@@H]1[C@H]1CC[C@@H]3[C@@]4(C)CC=C(c5ccc(C(=O)O)cc5)C(C)(C)[C@@H]4CC[C@@]3(C)[C@]1(C)CC2 |  | 92HT599 | MT-2 | EC50 | p24 / ELISA |  | ≤0.01 µM
CC(C)C(NC(=O)OC(C)(C)C)C(=O)O[C@@H](C[C@@H](Cc1ccccc1)C(=O)N[C@H]1c2ccccc2C[C@H]1OC(=O)C(NC(=O)OC(C)(C)C)C(C)C)CN1CCN(Cc2cccnc2)C[C@H]1C(=O)NC(C)(C)C |  | LAI | CEM + CEM-SS | EC50 | cytopathic effect / MTT |  | 4.7 µM
Cc1cn(CC2(OCP(=O)(O)O)CC2)c(=O)[nH]c1=O |  |  |  | EC50 |  |  | >30 µM
CC(C)N(C=Nc1ccn([C@H]2C[C@H](CO)[C@@H](CO)O2)c(=O)n1)C(C)C |  | IIIB | MT-4 | EC50 | XTT |  | 4.5 µM
Cc1occc1C(=S)Nc1ccc(Cl)c(C(=O)OC(C)C)c1 | RT-L74V | NL4-3 | CEM + CEM-SS | EC50 | cytopathic effect / XTT |  | 0.03 µM
CCn1cc(CN2CCC(c3cc(CCOc4ccc(C(F)(F)F)cc4)[nH]n3)C2)c(C)n1 |  | BaL | TZM-bl | EC50 | luciferase |  | >100 µM
COCCOCCOCCOCCOCCOCCOCCOCCOCCOCCOCCOCCOCCOCCOCCOCCOCCOCCOCCOCCOCCOCCOCCOCCOCCOCCOCCOCCOCCOCCOCCOCCOCCOCCOCCOCCOCCOCCOCCOCCOCCOCCOCCOCCOC(=O)CCC(=O)O[C@@H]1Cc2ccccc2[C@@H]1NC(=O)[C@H](Cc1ccccc1)C[C@H](O)CN1CCN(Cc2cccnc2)C[C@H]1C(=O)NC(C)(C)C |  | LAI | CEM + CEM-SS | EC50 | cytopathic effect / MTT |  | 0.085 µM
CC(C)=CCc1c(O)cc2oc(-c3ccc(O)cc3O)c(CC=C(C)C)c(=O)c2c1O |  | LAV | PBMC | EC50 | RT activity |  | 4.9 µM
Nc1nc(N)c2ncn([C@H]3CO[C@@H](CO)O3)c2n1 | RT-K65R |  | MT-2 | EC50 | cytopathic effect / XTT |  | 42 µM
Cn1cc(C(=O)N2CCC(c3cc(CCOc4ccccc4C(F)(F)F)[nH]n3)C2)cn1 |  | BaL | TZM-bl | EC50 | luciferase |  | 1.57 µM
CC(C)C(=O)Cc1c(OCC2OC2(C)C)ccc2ccc(=O)oc12 |  | LAV | PBMC | EC50 | RT activity |  | >100 µM
CC(C)[C@H](NC(=O)[C@@H](NC(=O)[C@H](C)C[C@H](O)[C@H](Cc1ccccc1)NC(=O)[C@H](C)NC(=O)OCc1ccccc1)C(C)C)C(=O)O |  | IIIB | MOLT-4 | EC50 | RT activity |  | 0.88 µM
CCCN1C(=O)N(CCC)N(C(=O)C(C)(C)C)C[C@@H](O)[C@H]1Cc1ccccc1 |  | IIIB | MT-4 | EC50 | cytopathic effect |  | 6.8 µM
O=c1nc(NO)ccn1[C@@H]1O[C@H](CO)C=C1Cl |  |  | MT-4 | EC50 |  |  | >500 µM
CC(C)=CC1Oc2cc(O)ccc2-c2oc3cc4c(c(O)c3c(=O)c21)C=CC(C)(C)O4 |  | LAV | PBMC | EC50 | RT activity |  | 20.6 µM
COCCOCCN1CCN(C(=O)N[C@]23CC[C@@H](C4(C)CC4)[C@@H]2[C@H]2CC[C@@H]4[C@@]5(C)CC=C(c6ccc(C(=O)O)cc6)C(C)(C)[C@@H]5CC[C@@]4(C)[C@]2(C)CC3)CC1 |  | 92HT599 | MT-2 | EC50 | p24 / ELISA |  | ≤0.01 µM
CCOc1nc(N)nc2c1ncn2CC1(OCP(=O)(O)O)CC1 |  |  |  | EC50 |  |  | >30 µM
CC(=O)N[C@@H](Cc1ccc(O)cc1)C(=O)N[C@H]1CSSC[C@@H](C(=O)O)NC(=O)[C@H](CCCCN)NC(=O)[C@H](CCCCN)NC1=O |  | NL4-3 | MT-4 | EC50 | RT activity | 6 d | >2.5 µM
COc1ccc(CSc2nc(C(=O)c3ccc(F)cc3)c(C)c(=O)[nH]2)cc1 |  | IIIB | MT-4 | EC50 | MTT |  | 6.35 µM
COc1cc(OC)c2ccc(=O)oc2c1CC(=O)C(C)C |  | LAV | PBMC | EC50 | RT activity |  | >100 µM
CNc1ccn([C@@H]2O[C@H](CO)C=C2Cl)c(=O)n1 |  |  | MT-4 | EC50 |  |  | >500 µM
CC(=O)N1C[C@@H](O)[C@@H](Cc2ccccc2)N(Cc2ccc(O)cc2)C(=O)N1Cc1ccc(O)cc1 |  | IIIB | MT-4 | EC50 | cytopathic effect |  | 0.17 µM
CC(C)(C)NC(=O)[C@@H]1C[C@@H]2CCCC[C@@H]2CN1C[C@@H](OC(=O)COc1ccc(CC(NC(=O)OC(C)(C)C)C(=O)OC(C)(C)C)cc1)[C@H](Cc1ccccc1)NC(=O)[C@H](CC(N)=O)NC(=O)c1ccc2ccccc2n1 |  | IIIB | MT-4 | EC50 | cytopathic effect / MTT |  | 0.035 µM
O=c1ccn([C@@H]2C[C@H](CO)CO2)c(=O)[nH]1 |  |  |  | EC50 |  |  | >100 µM
CC(C)C(NC(=O)OC(C)(C)C)C(=O)O[C@H](CN1C[C@H]2CCCC[C@H]2C[C@H]1C(=O)NC(C)(C)C)[C@H](Cc1ccccc1)NC(=O)[C@H](CC(N)=O)NC(=O)c1ccc2ccccc2n1 |  | IIIB | MT-4 | EC50 | cytopathic effect / MTT |  | 3.2 µM
COCCOCCOC1CCN(C(=O)N[C@]23CC[C@@H](C4(C)CC4)[C@@H]2[C@H]2CC[C@@H]4[C@@]5(C)CC=C(c6ccc(C(=O)O)cc6)C(C)(C)[C@@H]5CC[C@@]4(C)[C@]2(C)CC3)CC1 |  | 92HT599 | MT-2 | EC50 | p24 / ELISA |  | ≤0.01 µM
Cc1occc1C(=S)Nc1ccc(Cl)c(/C=N/OC(C)(C)C)c1 | RT-V108I | NL4-3 | CEM + CEM-SS | EC50 | cytopathic effect / XTT |  | 0.2 µM
Cc1ccc(C)n1-c1ccc(C(=O)O)c(O)c1 |  | 93BR020 X4R5 CLADE F | PBMC + MT-2 | EC90 | p24 |  | 15.22 µM
COCC(=O)N1CCC(c2cc(CCOc3ccccc3C(F)(F)F)[nH]n2)C1 |  | BaL | TZM-bl | EC90 | luciferase |  | 15.9 µM
O=c1nc(N=CN2CCCCC2)ccn1[C@H]1C[C@H](CO)[C@@H](CO)O1 |  | TIBO-resistant | MT-4 | EC50 | XTT |  | 4.5 µM
C=CCO/N=C/c1cc(NC(=S)c2ccoc2C)ccc1Cl | RT-L100I | NL4-3 | CEM + CEM-SS | EC50 | cytopathic effect / XTT |  | 1.3 µM
Cc1cnc(Nc2ccc(C#N)cc2)nc1C(C)(O)c1ccc(F)cc1 | K103N + Y181C | IIIB | MT-4 | EC50 | MTT |  | >38.2 µM
COc1ccc2ccc(=O)oc2c1CC(=O)C(C)C |  | LAV | PBMC | EC50 | RT activity |  | >100 µM
Cc1occc1C(=S)Nc1ccc(Cl)c(C(=O)OC(C)C2CC2)c1 |  | RF | CEM + CEM-SS | EC50 | cytopathic effect / XTT |  | 0.02 µM
Nc1nc(Cl)c2ncn(CC3(OCP(=O)(O)O)CC3)c2n1 |  |  |  | EC50 |  |  | >30 µM
COc1ccc2[nH]c(C(=O)NCc3ccc(Cl)c(Oc4cc(Cl)cc(C#N)c4)c3)cc2c1 | Y181C in RT | HXB2 | HeLa | EC50 |  |  | >1 µM
C=C(C)C(O)Cc1c(OC)cc(OC)c2ccc(=O)oc12 |  | LAV | PBMC | EC50 | RT activity |  | >100 µM
CNC(=O)N[C@]12CC[C@@H](C3(C)CC3)[C@@H]1[C@H]1CC[C@@H]3[C@@]4(C)CC=C(c5ccc(C(=O)O)cc5)C(C)(C)[C@@H]4CC[C@@]3(C)[C@]1(C)CC2 |  | 92HT599 | MT-2 | EC50 | p24 / ELISA |  | ≤0.01 µM
C/C=C/C=C/C=NC=Nc1ccn([C@H]2C[C@H](CO)[C@@H](CO)O2)c(=O)n1 |  | IIIB | MT-4 | EC50 | XTT |  | 13.1 µM

5 of the rows above, restated:

SMILES,changes,strain or isolate,cells,endpoint,method,conditions,result
C/C=C/C=C/C=NC=Nc1ccn([C@H]2C[C@H](CO)[C@@H](CO)O2)c(=O)n1,,IIIB,MT-4,EC50,XTT,,13.1 µM
CC(C)(CN1CCCCC1)NC(=O)N[C@]12CC[C@@H](C3(C)CC3)[C@@H]1[C@H]1CC[C@@H]3[C@@]4(C)CC=C(c5ccc(C(=O)O)cc5)C(C)(C)[C@@H]4CC[C@@]3(C)[C@]1(C)CC2,,92HT599,MT-2,EC50,p24 / ELISA,,≤0.01 µM
CCc1c(Sc2ccccc2)n(COCc2ccccc2)c(=O)[nH]c1=O,,A012B,MT-4,EC50,p24,,0.0019 µM
CC(C)=CC1Oc2cc(O)ccc2-c2oc3cc4c(c(O)c3c(=O)c21)C=CC(C)(C)O4,,LAV,PBMC,EC50,RT activity,,20.6 µM
CNC(=O)N[C@]12CC[C@@H](C3(C)CC3)[C@@H]1[C@H]1CC[C@@H]3[C@@]4(C)CC=C(c5ccc(C(=O)O)cc5)C(C)(C)[C@@H]4CC[C@@]3(C)[C@]1(C)CC2,,92HT599,MT-2,EC50,p24 / ELISA,,≤0.01 µM